{"source": "patent US11634477", "about": "(dated 2023)", "binders": {"B1": {"name": "C127 (antibody, V domains shown)", "VH": "QVQLVQSGAEVKKPGASVKVSCKASGYTFTGYYMHWVRQAPGQGLEWMGWINPNSGGTNYAQKFQGRVTMTRDTSISTAYMELSRLRSDDTAVYYCATAHPRRIQGVFFLGPGVWGQGTTVTVSS", "VL": "not shown"}}, "target": "SARS-CoV-2 RBD (SARS-CoV-2)", "test": "ELISA"}
{"binder": "B1", "values": [{"measurement": "EC50", "result": 2.62, "unit": "ng/mL"}]}
